Assay [1] concerns the target Myc-tagged DDX3 (full length), human, O00571 1-662. Description: immunoprecipitation, DDX3-Myc and HA-tagged K7 mutants.
For assay [2], the target named is His-tagged DDX3 139-408, human, O00571 139-408. The experiment in a line: His-DDX3 Ni-Agarose pulldown from lysate with ΔK7-HA.
Assay [3] concerns the target His-tagged DDX3 102-408, human, O00571 102-408. The assay is described as above.
The target in assay [4] is His-tagged DDX3 22-408, human, O00571 22-408. Described as above.
For assay [5], the target named is His-tagged DDX3 1-408, human, O00571 1-408. The description is as above.
The target in assay [6] is His-tagged full length DDX3 (amino acids 1-662), human, O00571 1-662. The description is as above.
The target of assay [7] is His-tagged DDX3 409-662, human, O00571 409-662. Described as above.
Assay [8] deals with Myc-tagged DDX3 1-408, human, O00571 1-408. Description: co-immunoprecipitation, HEK293T cells, Myc-DDX3 1-408 and ΔK7-HA.

Turning to “HA-tagged ΔK7R (K7 truncation mutant, aa 1-108)”, the result in assay [1], in assay [2], in assay [3], in assay [4], in assay [5] and in assay [6] was “no binding” throughout. The result in assay [7] and in assay [8] was “no binding” throughout.
For HA-tagged K7R truncation mutant 1-93, the result in assay [1] is given as “no binding”.
“HA-tagged K7R N-terminal truncation mutant 41-149”: the result in assay [1] is “no binding”.
The same measure, in the same setting: in the case of HA-tagged K7R truncation mutant 1-123 it was “no binding”.
